This test concerns the target SARS-CoV-2 스파이크 단백질 (SARS-CoV-2, UniProt P0DTC2 14-1273). The experiment in a line: cell-based or functional assay.

B1: S2N22 (antibody, V domains shown)
VH: EVQLVESGGGLVQPGGSLRLSCAASGFTFSSYPMSWVRQAPGKGLEWVSAISGSGNYTYYADSVKGRFTISRDNSKNTLYLQMNSLRAEDTAVYYCAKDPGGLSNFDFWGQGTLVTVSS
VL: NIQMTQSPSSLSASVGDRVTITCRASQSISTYLNWFQQKPGKAPKLLIYAASSLQSGVPSRFSGSGSGTDFTLTISSLQREDFATYYCQQTYSTPRIFGQGTKLEIK
Turning to B1, the “EC50 (neutralisation)” value was found to be 0.0362 µg/mL and the “EC90 (neutralisation)” value was 0.0588 µg/mL.
